Compound potency records, mixed from different reports. Data source: NIAID ChemDB in PubChem.

Shared fields: tests in culture; organism: Mycobacterium avium; endpoint: MIC

Lines come from different laboratories, so protocols vary. Blank or dashed fields: not listed here.

compound | strain or isolate | read by | conditions | result
c1ccc2oc(SCc3ccncc3)nc2c1 | MY330/88 | - | - | 250 µM
O=C(Nc1ccc(Cl)cc1)c1cc(Cl)ccc1OP(=O)(OCc1ccccc1)OCc1ccccc1 | MY330/88 | - | 14 d | 62.5 µM
CC[C@H]1OC(=O)[C@H](C)[C@@H](O[C@H]2C[C@@](C)(OC)[C@@H](O)[C@H](C)O2)[C@H](C)[C@@H](O[C@@H]2O[C@H](C)C[C@H](N(C)C)[C@H]2O)[C@](C)(OC)C[C@@H](C)C(=O)[C@H](C)[C@@H](O)[C@]1(C)O | 211 | broth dilution / radiometric | pH 7.4 | 1 µg/mL
O=C(Nc1ccc(Br)cc1)c1cc(Cl)ccc1OP(=O)(c1ccccc1)c1ccccc1 | MY330/88 | - | 14 d | 16 µM
CO[C@H]1/C=C/O[C@@]2(C)Oc3c(C)c(O)c4c(O)c(c(/C=N/N5CCN(C)CC5)c(O)c4c3C2=O)NC(=O)/C(C)=C\C=C\[C@H](C)[C@H](O)[C@@H](C)[C@@H](O)[C@@H](C)[C@H](OC(C)=O)[C@@H]1C | 6-12 | - | - | 5 µg/mL
c1ccc2[nH]c(SCc3ccncc3)nc2c1 | MY330/88 | - | - | 1000 µM
O=C(O)c1cn(C2CC2)c2c(F)c(N3CCN4CCC3C4)c(F)cc2c1=O | LR114F | - | - | 1 µg/mL
Cc1ccc2nc(SCc3ccccn3)[nH]c2c1 | MY330/88 | - | - | 500 µM
CCn1cc(C(=O)O)c(=O)c2cc(F)c(N3CCS(=O)CC3)c(F)c21 | PI4/44 | - | - | 16 µg/mL
O=c1oc2ccccc2c(=O)n1-c1ccc(F)cc1 | MY330/88 | - | - | 125 µM
CC[C@H]1OC(=O)[C@H](C)[C@@H](O[C@H]2C[C@@](C)(OC)[C@@H](O)[C@H](C)O2)[C@H](C)[C@@H](O[C@@H]2O[C@H](C)C[C@H](N(C)C)[C@H]2O)[C@](C)(O)C[C@@H](C)CN(C)[C@H](C)[C@@H](O)[C@]1(C)O | 1435-C clarithromycin-resistant | - | - | >512 µg/mL
O=C(Nc1ccc(Cl)c(Cl)c1)c1cc(Cl)ccc1OP(=O)(OCc1ccccc1)OCc1ccccc1 | MY330/88 | - | 14 d | 125 µM
CCc1cc(C(N)=S)ccn1 | 3011-C clarithromycin-resistant | - | - | >8 µg/mL
CO[C@H]1/C=C/O[C@@]2(C)Oc3c(C)c(O)c4c(O)c(c(/C=N/N5CCN(C)CC5)c(O)c4c3C2=O)NC(=O)/C(C)=C\C=C\[C@H](C)[C@H](O)[C@@H](C)[C@@H](O)[C@@H](C)[C@H](OC(C)=O)[C@@H]1C | Isolate 90-1799 | - | - | >30 µg/mL
Nc1ccccc1C(=O)Nc1ccccc1 | MY330/88 | - | - | 500 µM
N[C@@H]1CONC1=O | 453-C clarithromycin-resistant | - | - | 16 µg/mL
O=C(Nc1ccc(Br)cc1)c1cc(Cl)ccc1OP(=O)(Oc1ccccc1)c1ccccc1 | MY330/88 | - | 14 d | 16 µM
CCn1cc(C(=O)O)c(=O)c2ccc(N3CC(O)C(O)C(O)C3)nc21 | PI2/8 | - | - | >32 µg/mL
O=C(Nc1ccc(Br)cc1)c1cc(Cl)ccc1OP(=O)(Oc1ccccc1)Oc1ccccc1 | MY330/88 | - | 7 d | 16 µM
CO[C@H]1/C=C/O[C@@]2(C)Oc3c(C)c(O)c4c(=O)c(c5oc6cc(N7CCN(CC(C)C)CC7)cc(=O)c6nc5c4c3=C2O)NC(=O)/C(C)=C\C=C\[C@H](C)[C@H](O)[C@@H](C)[C@@H](O)[C@@H](C)[C@H](OC(C)=O)[C@@H]1C | 3354 | - | - | 0.062 µg/mL
O=c1oc2ccccc2c(=O)n1-c1ccc([N+](=O)[O-])cc1 | MY330/88 | - | - | 31 µM
O=C1c2cc(Cl)ccc2OP(=O)(c2ccccc2)N1c1ccc(Cl)c(Cl)c1 | MY330/88 | - | 7 d | 16 µM
CC[C@@H](CO)NCCN[C@@H](CC)CO | RG1 | - | - | 8 µg/mL
NC(=S)c1cc(SCc2ccccn2)ccn1 | MY330/88 | - | - | 1000 µM
NC1CCN(c2c(F)cc3c(=O)c(C(=O)O)cn(C4CC4)c3c2F)C1 | PI4/44 | - | - | 8 µg/mL
Nc1ccccc1C(=O)Nc1cccc([N+](=O)[O-])c1 | MY330/88 | - | - | >250 µM
c1ccc2c(CSc3nc4ccccc4[nH]3)cccc2c1 | MY330/88 | - | - | 62.5 µM
Nc1ccccc1C(=O)Nc1ccc(F)cc1 | MY330/88 | - | - | >250 µM
Cc1ccc2nc(SCc3ccncc3)[nH]c2c1 | MY330/88 | - | - | 125 µM
CC(C)N=c1cc2n(-c3ccc(Cl)cc3)c3ccccc3nc-2cc1Nc1ccc(Cl)cc1 | 3090-C clarithromycin-resistant | - | - | 0.12 µg/mL
O=C(O)c1cn(C2CC2)c2c(F)c(N3CCC(N4CCCC4)C3)c(F)cc2c1=O | PI2/8 | - | - | 1 µg/mL

2 of the rows above, restated:

compound | strain or isolate | read by | conditions | result
NC1CCN(c2c(F)cc3c(=O)c(C(=O)O)cn(C4CC4)c3c2F)C1 | PI4/44 | - | - | 8 µg/mL
c1ccc2oc(SCc3ccncc3)nc2c1 | MY330/88 | - | - | 250 µM